Patent US20240382586A1 (TAKIS S R L, published 2024)

B1: 9-8F2-B11 (mouse) (antibody, V domains shown)
VH: EVQLQQSGAELVKPGASVKLSCTASGFNIKETYVHWVKQRPEQGLEWIGRIDPAIGDSEYDPKFQGKATVTADTSSNTAYLQLSRLTSEDTAVYYCARTWGPFFDFWGQGTTLTVSS
VL: DVVMTQTPLSLPVSLGDQASISCRSSQSLVHSHGNTFLHWYLQKPGQSPKVLIYKVSSRFSGVPDRFSGSGAGTDFTLKISRVEAEDLGVYFCSQSTHVPYTFGGGTKLEIK
B2: humanised 9-8F2-B11 (VH3VL3) (antibody, V domains shown)
VH: QVQLVQSGAEVKKPGASVKVSCKASGFNIKETYVHWVRQAPGQGLEWMGRIDPAIGDSEYAQKFQGRVTMTRDTSISTAYMELSRLRSDDTAVYYCARTWGPFFDFWGQGTLVTVSS
VL: DIVMTQTPLSLSVTPGQPASISCKSSQSLLHSHGNTFLHWYLQKPGQSPQVLIYKVSSRFSGVPDRFSGSGSGTDFTLKISRVEAEDVGVYYCSQSTHVPYTFGQGTKLEIK
notes: also called 9-8F2-B11 humanised
B3: 9-2H7-D7 (mouse) (antibody, V domains shown)
VH: EVQLQQSGPELVKPGASVTISCKTSGYTFTEYTMYWVKQSHGKSLEWIGGINPYIGDTSYNQNFKGKATLTVDKSSSTAYMELRSLTSEDSAVYYCARDGYPDYSAMDFWGQGTSVTVSS
VL: DIVMSQSPSSLAVSVGEKVTMNCKSSQNLLYSSNQKNYLAWYQQKPGQSPKLLIYWASTRESGVPDRFTGSGSGTDFTLTISSVKAEDLAVYSCQQYYTYPWTFGGGTKLEIK
B4: 9-2H7-D7 chimera (antibody, V domains shown)
VH: B3 VH
VL: B3 VL
B5: 9-7A4-C2 (mouse) (antibody, V domains shown)
VH: EVQLQQSGPELVKPGASVKISCKTSGYTFTEYTMYWVKQSHGKSLEWIGGINPNNGDSSYIQKFKGKATLTVDESSSTAYMELRSLTSEDSAVYYCARDGYPNSYAMDYWGQGTSVTVSS
VL: B3 VL with E17D, N22S, N28S, S33T, S82G, K85R, A86P, S93Y, T99S

Columns and labels:
Test in all cases: cell-based or functional assay
[1] = molecular target: T1, SARS-CoV-2 spike, variant D614G (on virus or pseudovirus) (SARS-CoV-2, UniProt P0DTC2 14-1273)
[2] = molecular target: SARS-CoV-2 spike, variant N501Y (B.1.1.7, British) (on virus or pseudovirus) (SARS-CoV-2, UniProt P0DTC2 14-1273)
[3] = molecular target: T1, SARS-CoV-2 spike, variant D614G (on …); remark: listed apart in the source
[4] = molecular target: SARS-CoV-2 spike, Delta variant B1.617.2 (on pseudovirus) (SARS-CoV-2)
[5] = molecular target: SARS-CoV-2 spike, Brazilian variant P.1 (on pseudovirus) (SARS-CoV-2)

Row | Binder | EC50 virus D614G (ng/ml), SARS-CoV-2 neutralisation on Vero E6 cells [1] [ng/mL] | EC50 virus N501Y (ng/ml), SARS-CoV-2 neutralisation on Vero E6 cells [2] [ng/mL] | IC50 (ng/ml), pseudovirus neutralisation, WT D614G [3] [ng/mL] | IC50 (ng/ml), pseudovirus neutralisation, Delta B1.617.2 [4] [ng/mL] | IC50 (ng/ml), pseudovirus neutralisation, Brazilian P.1 [5] [ng/mL]
1 | B1 | 5.49 | 0.87 | 11 | 127 | 57
2 | B2 | – | – | 16 | 113 | 3700
3 | B3 | 10.2 | 15.2 | 35 | 107 | 63
4 | B4 | – | – | 19 | 22 | 11
5 | B5 | 3.21 | 4.06 | 16 | 52 | 9

Substitutions are numbered along the chain they refer to.
